Experimental data reported in patent publication US20230227769A1, “Means and Methods to Improve Yeast Fermentation Efficiency” (VIB VZW, priority 2020, published 2023).

Test system: tolerance to mixture of inhibitors
Assay: Small-scale fermentations in YPDX enriched with a mixture of inhibitors (HMF, furfural, vanillin, acetic acid)
Set-up: species or system S. cerevisiae

Molecule	fermentation capacity of TMB 3400 after insertion of the allele (YPDX enriched with a mixture of inhibitors)	additional protective effect in MD4 or GVM1 (low inhibitor levels (2.80 g/l HMF, 1.75 g/l furfural, 0.35 g/l vanillin, 4.20 g/l acetic acid))
AST2^N406I: mutant S. cerevisiae AST2 allele; asparagine on position 406 replaced by isoleucine (protein, listed as Saccharomyces cerevisiae) MAEKILENKDPKLEAMTVDHEVSAPKPIPVDEPTLTRVARPLRHVRHIPVKSLVFHSKHGPITFSYENKIKLPISKNKLVVQVNYVGLNPVDMKIRNGYTKPIYGEAGIGREYSGVITHVGDNLTNRWNVGDDVYGIYYHPKLAIGALQSSLLIDPRVDPILMRPKNTLSPEKAAGSLFCLGTALNLLAQLKEKDQLNTESNVLINGGTSSVGMFAIQLLKRYYKVSKKLVVVTSGNGAAVLSEHFPDLKDEIIFINYLSCRGKSSKPLRRMLDTGKVVDYDDFNTLKETEDYTQGKFNVVLDFIGGYDILSHSSSLIHAKGAYITTVGDYVGNYKKDVFDSWDNPSANARKMFGSMLWSYDYSHFYFDPNIKIIPKKNDWIHECGKLLNEGVVDCVVDKVYSWKIFKEAFSYMATQRAQGKLIMKVEGF	improved the fermentation capacity of TMB 3400 significantly	–
AST1^D405I: mutant S. cerevisiae AST1 allele; aspartate on position 405 replaced by isoleucine (protein, listed as Saccharomyces cerevisiae) MAKDILKNQDPKLQAMIVEHSAPAPKEIPMDAPVLKRVARPLRHVKFIPIKSLIFHTKTGPMDFSYEKKIKTPIPKNKIVVRVSNVGLNPVDMKIRNGYTSSIYGEIGLGREYSGVITEVGENLNYAWHVGDEVYGIYYHPHLAVGCLQSSILVDPKVDPILLRPESVSAEEAAGSLFCLATGYNILNKLSKNKYLKQDSNVLINGGTSSVGMFVIQLLKRHYKLQKKLVIVTSANGPQVLQEKFPDLADEMIFIDYLTCRGKSSKPLRKMLEEKKISQYDPVEDKETILNYNEGKFDVVLDFVGGYDILSHSSSLIHGGGAYVTTVGDYVANYKEDIFDSWDNPSANARKMFGSIIWSYNYTHYYFDPNAKTASANNDWIEQCGDFLKNGTVKCVVDKVYDWKIHKEAFSYMATQRAQGKLIMNVEKF	–	did not appear to confer any additional protective effect
